A mixed list of measured activities; the numbers were collected in NIAID ChemDB.

All rows: whole-cell or culture tests; organism: Mycobacterium avium complex

Blank or dashed fields: not listed here.

{"structure": "NC[C@@H]1O[C@H](O[C@H]2[C@@H](O)[C@H](O[C@@H]3[C@@H](O)[C@H](N)C[C@H](N)[C@H]3O[C@H]3O[C@H](CO)[C@@H](O)[C@H](O)[C@H]3N)O[C@@H]2CO)[C@H](N)[C@@H](O)[C@@H]1O", "measure": "MIC", "strain": "CH-5/HIV+", "value": "3.12 µg/mL"}
{"structure": "CC[C@@H](CO)NCCN[C@@H](CC)CO", "measure": "MIC", "strain": "3090-4", "value": "1.9 µg/mL"}
{"structure": "CC(C)N=c1cc2n(-c3ccc(Cl)cc3)c3ccccc3nc-2cc1Nc1ccc(Cl)cc1", "read by": "agar", "measure": "inhibition", "tested at": "1 µg/mL", "strain": "14 strains", "value": "86%"}
{"structure": "O=C(O)c1cn(C2CC2)c2c(F)c(N3CC4CC3CN4)c(F)cc2c1=O", "measure": "MIC50", "strain": "14 strains", "value": "2 µg/mL"}
{"structure": "C[C@@H]1CN(c2c(F)c(N)c3c(=O)c(C(=O)O)cn(C4CC4)c3c2F)C[C@H](C)N1", "read by": "broth dilution", "measure": "MIC", "strain": "29", "value": "1 µg/mL"}
{"structure": "NCC[C@H](O)C(=O)N[C@@H]1C[C@H](N)[C@@H](O[C@H]2O[C@H](CN)[C@@H](O)[C@H](O)[C@H]2O)[C@H](O)[C@H]1O[C@H]1O[C@H](CO)[C@@H](O)[C@H](N)[C@H]1O", "measure": "MIC", "strain": "542/HIV+", "value": "<0.61 µg/mL"}
{"structure": "NCC1(O)CCN(c2c(F)cc3c(=O)c(C(=O)O)cn(N4CC4)c3c2F)C1", "measure": "MIC", "strain": "PI12/39", "value": "32 µg/mL"}
{"structure": "CC[C@@H](CO)NCCN[C@@H](CC)CO", "measure": "inhibition", "tested at": "5 µg/mL", "strain": "14 strains", "value": "0%"}
{"structure": "CC[C@H]1OC(=O)[C@H](C)[C@@H](O[C@H]2C[C@@](C)(OC)[C@@H](O)[C@H](C)O2)[C@H](C)[C@@H](O[C@@H]2O[C@H](C)C[C@H](N(C)C)[C@H]2O)[C@](C)(O)C[C@@H](C)C(=O)[C@H](C)[C@@H](O)[C@]1(C)O", "measure": "MIC", "strain": "3212", "value": "64 µg/mL"}
{"structure": "NC(=O)c1cnccn1", "read by": "agar", "measure": "inhibition", "tested at": "25 µg/mL", "strain": "713 strains", "value": "<1%"}
{"structure": "CN[C@@H]1[C@H](O[C@H]2[C@H](O[C@H]3[C@H](O)[C@@H](O)[C@H](N=C(N)N)[C@@H](O)[C@@H]3N=C(N)N)O[C@@H](C)[C@]2(O)C=O)O[C@@H](CO)[C@H](O)[C@H]1O", "measure": "MIC", "strain": "Isolate C-18", "value": "50 µg/mL"}
{"structure": "CN1CC2CCC1CN2c1c(F)cc2c(=O)c(C(=O)O)cn(C3CC3)c2c1F", "measure": "MIC", "strain": "1172733", "value": "1 µg/mL"}
{"structure": "CC[C@H]1OC(=O)[C@H](C)[C@@H](O[C@H]2C[C@@](C)(OC)[C@@H](O)[C@H](C)O2)[C@H](C)[C@@H](O[C@@H]2O[C@H](C)C[C@H](N(C)C)[C@H]2O)[C@](C)(OC)C[C@@H](C)C(=O)[C@H](C)[C@@H](O)[C@]1(C)O", "measure": "MIC", "strain": "3215", "value": "4 µg/mL"}
{"structure": "CC1CN(c2c(F)cc3c(=O)c(C(=O)O)cn(C4CC4)c3c2F)CCN1", "measure": "MIC", "strain": "1988557", "value": "1 µg/mL"}
{"structure": "CN1CCN(c2cc3c(cc2F)c(=O)c(C(=O)O)cn3-c2ccc(F)cc2)CC1", "measure": "MIC", "strain": "3217", "value": "16 µg/mL"}
{"structure": "CC1CCN(c2c(F)cc3c(=O)c(C(=O)O)cn(C4CC4)c3c2F)C1", "measure": "MIC", "strain": "1915112", "value": "4 µg/mL"}
{"structure": "Nc1ccc(C(=O)O)c(O)c1", "read by": "agar", "measure": "inhibition", "tested at": "2 µg/mL", "strain": "713 strains", "value": "4%"}

The last 2 rows once more:

| structure | read by | measure | tested at | strain | value |
|---|---|---|---|---|---|
| CC1CCN(c2c(F)cc3c(=O)c(C(=O)O)cn(C4CC4)c3c2F)C1 | - | MIC | - | 1915112 | 4 µg/mL |
| Nc1ccc(C(=O)O)c(O)c1 | agar | inhibition | 2 µg/mL | 713 strains | 4% |

Lines come from different laboratories, so protocols vary. MIC50, MIC90 and the like: level of inhibition, or share of isolates inhibited. Inhibition is in % at the dose shown (toxicity tests: loss of growth or viability).